{
  "sequences": {"note": "The chains behind the UniProt entries cited, without tags or fusion partners. Residues count along the entry.", "UniProt A0A3Q0L222, 1-98": "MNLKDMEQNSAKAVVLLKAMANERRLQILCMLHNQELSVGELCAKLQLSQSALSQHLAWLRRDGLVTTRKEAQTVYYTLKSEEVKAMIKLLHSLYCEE"},
  "source": "patent US11510899B2",
  "about": "“RTX toxin production inhibitor and composition for treating symptom of vibrio infection by using same” (priority 2018, dated 2022)",
  "key": {"HlyU": {"molecular_target": "HlyU (Vibrio vulnificus, UniProt A0A3Q0L222)", "experiment": "Vibrio reporter strain, pKK1305 (PrtxA-lux, activated by HlyU) in wild-type V. vulnificus", "assay_type": "cell-based", "details": "for EC50: HlyU activity (RLU, DMSO = 100%), 30° C.; for EC50 / HlyU inhibitory effect compared with CM2660 (in words): pKK1305 in wild-type V. vulnificus", "experimental": "Meanwhile, verification experiments using the Vibrio reporter strain were also conducted so as to exclude false positive results. It was identified that the effect of the compound was not limited only to E. coli using Vibrio vulnificus, each having the reporter plasmid (pZW1608) inhibited by HlyU, which was used for the E. coli reporter strain, and the plasmid (pKK1305) in which the promoter of the rtxA gene activated by HlyU is cloned in front of the bioluminescence operon.\nThe constructed wild-type Vibrio reporter strain was treated with sample compounds and cultured at 30° C., and cell growth and luminescence were measured in the same manner as the E. coli strain screening (FIG. 3 and FIG. 4).\nIn order to identify whether or not a specific structure of CM2660 has a significant effect on HlyU inhibition, the effect of HlyU inhibition by the compound CM2660 and derivatives thereof, “Compound Group I” (FIG. 5) was verified. For the purpose, the pKK1305 plasmid prepared in Example 1 was conjugated to the wild-type Vibrio vulnificus, and the Vibrio reporter strain (pKK1305 in wild-type V. vulnificus) thus produced was treated with various concentrations of the derivative compounds.\n(§1) While culturing at 30° C., the growth of the reporter strain and the degree of bioluminescence thereof were measured in the same manner as in Example 1, and the RLU was calculated. The RLU of the DMSO-treated control group was expressed as 100% HlyU activity. HlyU activity was plotted according to the concentration of the derivative compound, and EC50 (half maximal effective concentration) was calculated using GraphPad Prism 7.0 (GraphPad Software, San Diego, Calif.) (FIG. 6, Table 2)."}, "Vibrio vulnificus": {"test_system": "Vibrio vulnificus", "experiment": "Growth of Vibrio vulnificus", "assay_type": "cell-based", "details": "derivative compounds in the reporter strain experiments", "experimental": "as §1\nTherefore, Vibrio vulnificus was treated with various concentrations of CM2660, and the growth of Vibrio vulnificus was observed (FIG. 20)."}},
  "data": [
    {"compound": "CC(C)(C)OC(=O)CNC(=O)C#Cc1ccc([N+](=O)[O-])cc1", "values": [
      {"measurement": "EC50", "setting": "HlyU; Compound Group II", "value": 2.29, "unit": "µM"},
      {"measurement": "EC50 / HlyU inhibitory effect compared with CM2660 (in words)", "setting": "HlyU", "value": "lower EC50 values than CM2660"},
      {"measurement": "growth of Vibrio vulnificus", "setting": "Vibrio vulnificus", "value": "inhibited the growth"}
    ]},
    {"compound": "Nc1scc2c1c(=O)oc1ccccc12", "values": [
      {"measurement": "EC50", "setting": "HlyU; Compound Group I", "value": 3.53, "unit": "µM"},
      {"measurement": "EC50 / HlyU inhibitory effect compared with CM2660 (in words)", "setting": "HlyU", "value": "lowest EC50 value and the highest HlyU inhibitory effect"},
      {"measurement": "growth of Vibrio vulnificus", "setting": "Vibrio vulnificus", "value": "inhibited the growth"}
    ]},
    {"compound": "COC(=O)/C=C/c1ccccc1", "values": [
      {"measurement": "EC50", "setting": "HlyU; Compound Group II", "value": 1790, "unit": "µM"}
    ]},
    {"compound": "C[Si](C)(C)C#CC(=O)O", "values": [
      {"measurement": "EC50", "setting": "HlyU; Compound Group II", "value": 1380, "unit": "µM"}
    ]},
    {"compound": "COC(=O)C#Cc1cccnc1", "values": [
      {"measurement": "EC50", "setting": "HlyU; Compound Group II", "value": 0.5, "unit": "µM"},
      {"measurement": "EC50 / HlyU inhibitory effect compared with CM2660 (in words)", "setting": "HlyU", "value": "lower EC50 values than CM2660"},
      {"measurement": "growth of Vibrio vulnificus", "setting": "Vibrio vulnificus", "value": "inhibited the growth"}
    ]},
    {"compound": "O=C(O)C#Cc1ccccc1", "values": [
      {"measurement": "EC50", "setting": "HlyU; Compound Group II", "value": 1310, "unit": "µM"}
    ]},
    {"compound": "CC(C)(C)C(=O)Nc1scc2c1c(=O)oc1ccccc12", "values": [
      {"measurement": "EC50", "setting": "HlyU; Compound Group II", "value": 71.6, "unit": "µM"}
    ]},
    {"compound": "CC(C)(C)OC(=O)CNC(=O)C#Cc1ccccc1", "values": [
      {"measurement": "EC50", "setting": "HlyU; Compound Group II", "value": 3.26, "unit": "µM"},
      {"measurement": "EC50 / HlyU inhibitory effect compared with CM2660 (in words)", "setting": "HlyU", "value": "lower EC50 values than CM2660"},
      {"measurement": "growth of Vibrio vulnificus", "setting": "Vibrio vulnificus", "value": "inhibited the growth"}
    ]},
    {"compound": "C#CC(=O)Nc1scc2c1c(=O)oc1ccccc12", "values": [
      {"measurement": "EC50", "setting": "HlyU; Compound Group II", "value": 7.31, "unit": "µM"},
      {"measurement": "EC50 / HlyU inhibitory effect compared with CM2660 (in words)", "setting": "HlyU", "value": "lower EC50 values than CM2660"},
      {"measurement": "growth of Vibrio vulnificus", "setting": "Vibrio vulnificus", "value": "inhibited the growth"}
    ]},
    {"compound": "CCOC(=O)C#Cc1ccccc1", "values": [
      {"measurement": "EC50", "setting": "HlyU; Compound Group II", "value": 0.17, "unit": "µM"},
      {"measurement": "EC50 / HlyU inhibitory effect compared with CM2660 (in words)", "setting": "HlyU", "value": "lower EC50 values than CM2660"},
      {"measurement": "growth of Vibrio vulnificus", "setting": "Vibrio vulnificus", "value": "inhibited the growth"}
    ]}
  ]
}
